Source: PMC4764553, “Human cytomegalovirus IE1 protein alters the higher-order chromatin structure by targeting the acidic patch of the nucleosome” (eLife, 2016)

Tested on: LANA N-terminal CTD peptide;human histone octamer H2A E56R (Kaposi's sarcoma-associated herpesvirus;Homo sapiens)
Assay: ITC

147-bp Widom 601 (human NCP)
Kd: 23.4 µM
